Reference: patent US20160024159A1, “Potent and selective inhibitors of Nav1.7” (published 2016)
Numbering of substitutions follows the chain as printed.

B1: [Nle6; AzK11; Glu20; Trp29]JzTx-V(1-29) (peptide)
peptide: YCQKWLWTCDKKRACCEGLECKLWCRKIW
modifications: not checked
B2: CyA-[Nle6; Pra11; Glu28]JzTx-V(1-29) (peptide)
peptide: AYCQKWLWTCDGKRACCEGLRCKLWCRKEI
modifications: not checked
B3: CyA-[Nle6; Pra12; Glu28]JzTx-V(1-29) (peptide)
peptide: B2 peptide with G12S, K13G
modifications: not checked
B4: [Nle6; Pra12; Glu28]JzTx-V(1-29) (peptide)
peptide: YCQKWLWTCDSGRACCEGLRCKLWCRKEI
modifications: not checked
B5: Pra-[Nle6; Phe20; Glu28]JzTx-V(1-29) (peptide)
peptide: B2 peptide with A1G, G12S, R21F
modifications: not checked
B6: Pra-[Nle6; Ala19; Glu28]JzTx-V(1-29) (peptide)
peptide: B2 peptide with A1G, G12S, L20A
modifications: not checked
B7: Pra-[Nle6; Lys19; Glu28]JzTx-V(1-29) (peptide)
peptide: B2 peptide with A1G, G12S, L20K
modifications: not checked
B8: Pra-[Nle6; Arg19; Glu28]JzTx-V(1-29) (peptide)
peptide: B2 peptide with A1G, G12S, L20R
modifications: not checked
B9: Pra-[Nle6; Lys17; Glu28]JzTx-V(1-29) (peptide)
peptide: B2 peptide with A1G, G12S, E18K
modifications: not checked
B10: Pra-[Nle6; Glu12, 28; Lys17]JzTx-V(1-29) (peptide)
peptide: GYCQKWLWTCDSERACCKGLRCKLWCRKEI
modifications: not checked
B11: Pra-[Nle6; Lys20; Glu28]JzTx-V(1-29) (peptide)
peptide: B2 peptide with A1G, G12S, R21K
modifications: not checked
B12: Pra-[Nle6; Glu14, 28]JzTx-V(1-29) (peptide)
peptide: B2 peptide with A1G, G12S, A15E
modifications: not checked
B13: Pra-[Nle6; Glu18, 28]JzTx-V(1-29) (peptide)
peptide: B2 peptide with A1G, G12S, G19E
modifications: not checked
B14: Pra-[Nle6; Glu19, 28]JzTx-V(1-29) (peptide)
peptide: B2 peptide with A1G, G12S, L20E
modifications: not checked
B15: Pra-[Nle6; Glu22, 28]JzTx-V(1-29) (peptide)
peptide: B2 peptide with A1G, G12S, K23E
modifications: not checked
B16: CyA-[Nle6; Glu12, 28; Pra17]JzTx-V(1-29) (peptide)
peptide: B10 peptide with G1A, K18G
modifications: not checked
B17: CyA-[Nle6; Glu14, 28; Pra17]JzTx-V(1-29) (peptide)
peptide: B2 peptide with G12S, A15E, E18G
modifications: not checked
B18: Glu-Pra-[Nle6; Glu11, 28]JzTx-V(1-29) (peptide)
peptide: EGYCQKWLWTCDEKRACCEGLRCKLWCRKEI
modifications: not checked
B19: Glu-[Pra1; Nle6; Glu11, 28]JzTx-V(1-29) (peptide)
peptide: B2 peptide with A1E, Y2G, G12E
modifications: not checked
B20: Glu-[Pra1; Nle6; Glu14, 28]JzTx-V(1-29) (peptide)
peptide: EGCQKWLWTCDSKRECCEGLRCKLWCRKEI
modifications: not checked
B21: Pra-[Glu1, 11, 28; Nle6]JzTx-V(1-29) (peptide)
peptide: B2 peptide with A1G, Y2E, G12E
modifications: not checked
B22: Glu-Pra-[Glu1, 11, 28; Nle6]JzTx-V(1-29) (peptide)
peptide: B18 peptide with Y3E
modifications: not checked
B23: Pra-[Glu1, 12, 28; Nle6]JzTx-V(1-29) (peptide)
peptide: B10 peptide with Y2E, K18E
modifications: not checked
B24: Pra-[Glu1, 14, 28; Nle6]JzTx-V(1-29) (peptide)
peptide: B20 peptide with E1G, G2E
modifications: not checked
B25: Pra-[Nle6; Glu11, 12, 28]JzTx-V(1-29) (peptide)
peptide: B10 peptide with S12E, K18E
modifications: not checked
B26: Glu-[Pra1; Nle6; Glu11, 12, 28]JzTx-V(1-29) (peptide)
peptide: B20 peptide with S12E, K13E, E15A
modifications: not checked
B27: Glu-[Pra1; Nle6; Glu11, 14, 28]JzTx-V(1-29) (peptide)
peptide: B20 peptide with S12E
modifications: not checked
B28: CyA-[Glu1, 12, 14, 28; Nle6; Pra17]JzTx-V(1-29) (peptide)
peptide: AECQKWLWTCDSERECCGGLRCKLWCRKEI
modifications: not checked
B29: CyA-[Glu1, 11, 12, 14, 28; Nle6; Pra17]JzTx-V(1-29) (peptide)
peptide: B28 peptide with S12E
modifications: not checked
B30: Glu-Nva-[Glu1, 11, 28; Nle6; Pra17]JzTx-V(1-29) (peptide)
peptide: B18 peptide with G2V, Y3E, E19G
modifications: not checked
B31: CyA-[Glu1, 28; Nle6; Pra17; Cha29]JzTx-V(1-29) (peptide)
peptide: B28 peptide with E13K, E15A, I30A
modifications: not checked
B32: CyA-[Glu1, 11, 28; Nle6; Pra17; Cha29]JzTx-V(1-29) (peptide)
peptide: AECQKWLWTCDEKRACCGGLRCKLWCRKEA
modifications: not checked
B33: CyA-[Nle6; Glu11; Pra17; 5-BrW24]JzTx-V(1-29) (peptide)
peptide: B32 peptide with E2Y, E29I, A30I
modifications: not checked
B34: [CyA1; Nle6; Glu11, 28; Pra17]JzTx-V(1-29) (peptide)
peptide: ACQKWLWTCDEKRACCGGLRCKLWCRKEI
modifications: not checked
B35: Pra-[Nle6; Ala20; Glu28]JzTx-V(1-29) (peptide)
peptide: B2 peptide with A1G, G12S, R21A
modifications: not checked
B36: Pra-[Nle6; Gln22; Glu28]JzTx-V(1-29) (peptide)
peptide: B2 peptide with A1G, G12S, K23Q
modifications: not checked
B37: [CyA1; Nle6; Pra17; Gln22; Glu28]JzTx-V(1-29) (peptide)
peptide: ACQKWLWTCDSKRACCGGLRCQLWCRKEI
modifications: not checked
B38: [Pra1; Nle6; Val20; Glu28]JzTx-V(1-29) (peptide)
peptide: GCQKWLWTCDSKRACCEGLVCKLWCRKEI
modifications: not checked
B39: Pra-[Nle6; Ile23; Glu28]JzTx-V(1-29) (peptide)
peptide: B2 peptide with A1G, G12S, L24I
modifications: not checked
B40: Pra-[Nle6; Nva23; Glu28]JzTx-V(1-29) (peptide)
peptide: B2 peptide with A1G, G12S, L24V
modifications: not checked
B41: Pra-[Nle6; Chg23; Glu28]JzTx-V(1-29) (peptide)
peptide: B2 peptide with A1G, G12S, L24G
modifications: not checked
B42: CyA-[Nle6; Pra17; 6-BrW24; Glu28]JzTx-V(1-29) (peptide)
peptide: B2 peptide with G12S, E18G
modifications: not checked
B43: CyA-[Nle6; Pra17; 6-MeW24; Glu28]JzTx-V(1-29) (peptide)
peptide: B2 peptide with G12S, E18G
modifications: not checked
B44: CyA-[Nle6; Pra17; 7-BrW24; Glu28]JzTx-V(1-29) (peptide)
peptide: B2 peptide with G12S, E18G
modifications: not checked
B45: CyA-[Nle6, Pra17, Glu20]JzTx-V(1-29) (peptide)
peptide: AYCQKWLWTCDSKRACCGGLECKLWCRKII
modifications: not checked
B46: CyA-[Nle6, Pra17, Glu20, Tyr28]JzTx-V(1-29) (peptide)
peptide: B45 peptide with I29Y
modifications: not checked
B47: Pra-[Nle6; Tyr20]JzTx-V(1-29) (peptide)
peptide: B45 peptide with A1G, G18E, E21Y
modifications: not checked
B48: CyA-[Nle6, Atz(palmitate)17, Glu28]JzTx-V(1-29) (peptide)
peptide: B2 peptide with G12S, E18A
modifications: not checked
B49: CyA-[Nle6, Atz(GGGGS-SA21-amide)17, Glu28]JzTx-V(1-29) (peptide)
peptide: B2 peptide with G12S, E18A
modifications: not checked
B50: CyA-[Nle6, Atz(His tag)17, Glu28]JzTx-V(1-29) (peptide)
peptide: B2 peptide with G12S, E18A
modifications: not checked
B51: Homodimeric Peptide No. 5 (peptide)
peptide: DCLGAFRKCIPDADKCCRPNLVCSRLHRWCKYVF
modifications: not checked

What was measured:
[1] = target: human Nav1.7 voltage-gated sodium channel (human), Q15858; assay: cell-based or functional assay
[2] = target: human Nav1.4 voltage-gated sodium channel (human), P35499; assay: cell-based or functional assay

Row | Binder | PX hNav1.7 Tonic IC50 [1] [nM] | Nav1.4/Nav1.7 [2] | PX hNav1.4 Tonic IC50 [2] [nM] | Nav1.7 PX IC50 [1] [nM]
1 | B1 | 435 |  |  | 
2 | B2 | 0.193 | 2670 | 517 | 
3 | B3 | 1.48 | 62 | 92.1 | 
4 | B4 | 1.35 |  |  | 
5 | B5 | 10.3 |  |  | 
6 | B6 | > 1000 |  |  | 
7 | B7 | > 1000 |  |  | 
8 | B8 | > 1000 |  |  | 
9 | B9 | 1.42 | 24 | 33.9 | 
10 | B10 | 8.76 | 46 | 405 | 
11 | B11 | 0.519 | 357 | 185 | 
12 | B12 | 0.975 | 333 | 325 | 
13 | B13 | > 1000 |  |  | 
14 | B14 | > 1000 |  |  | 
15 | B15 | 22.6 | > 442 | > 10000 | 
16 | B16 | 0.87 | 291 | 253 | 
17 | B17 | 1.19 | 109 | 130 | 
18 | B18 | 2.33 | 452 | 1050 | 
19 | B19 | 1.46 | 375 | 547 | 
20 | B20 | 0.563 | 437 | 246 | 
21 | B21 | 5.55 | 231 | 1280 | 
22 | B22 | 5.59 | 302 | 1680 | 
23 | B23 | 4.14 | 416 | 1720 | 
24 | B24 | 1.36 | 494 | 670 | 
25 | B25 | 3.8 | 374 | 1420 | 
26 | B26 | 6.66 | 323 | 2150 | 

Row | Binder | PX hNav1.7 Tonic IC50 [1] [nM] | Nav1.4/Nav1.7 [2] | PX hNav1.4 Tonic IC50 [2] [nM] | Nav1.7 PX IC50 [1] [nM]
27 | B27 | 2.91 | 411 | 1190 | 
28 | B28 | > 1000 |  |  | 
29 | B29 | > 1000 |  |  | 
30 | B30 | 15.2 |  |  | 
31 | B31 | 0.321 | 117 | 37.6 | 
32 | B32 | 0.95 | 311 | 294 | 
33 | B33 | 0.64 | 12 | 7.4 | 
34 | B34 | 2.87 | 159 | 457 | 
35 | B35 | 905 |  |  | 
36 | B36 | 35.3 |  |  | 
37 | B37 | 47.6 |  |  | 
38 | B38 | 3.99 | 280 | 1120 | 
39 | B39 | 1.06 | 182 | 193 | 
40 | B40 | 3.03 |  |  | 
41 | B41 | 0.489 | 361 | 177 | 
42 | B42 | 8.47 |  |  | 
43 | B43 | 14 |  |  | 
44 | B44 | 25.3 |  |  | 
45 | B45 |  | 98 |  | 
46 | B46 |  | 20 |  | 
47 | B47 | 5.98 |  |  | 
48 | B48 | 260 |  |  | 
49 | B49 | 299 |  |  | 
50 | B50 | 34.3 |  |  | 
51 | B51 |  |  |  | 91
